The experiment has as its system CoVs.

As usually defined, the IC50 is the concentration that inhibits the measured activity by half. Lower therefore signals greater potency. Consider `CC(C)C[C@@H]1NC(=O)[C@H](Cc2c[nH]cn2)NC(=O)[C@H](Cc2c[nH]c3ccccc23)NC(=O)[C@H](C)NC(=O)[C@@H](NC(=O)[C@@H](N)CC(=O)O)CSSC[C@@H](C(=O)N[C@H](C(=O)O)[C@@H](C)O)NC(=O)[C@H](Cc2c[nH]c3ccccc23)NC(=O)[C@H](C(C)C)NC(=O)[C@H](CC(C)C)NC(=O)[C@H](CCC(=O)O)NC(=O)CNC1=O` [IBP], for which the IC50 was above 50 µM.

The values are drawn from article PMC10526447 (Biomolecules, 2023).
